The source of these data is ChEMBL document CHEMBL2163257 (J Med Chem, 2012).

Protein sequences, listed by entry. Tags and fused reporters are not part of them. Lines headed by an entry give the natural chain unless they say otherwise; changes in a name come on top.
UniProt Q9H3N8: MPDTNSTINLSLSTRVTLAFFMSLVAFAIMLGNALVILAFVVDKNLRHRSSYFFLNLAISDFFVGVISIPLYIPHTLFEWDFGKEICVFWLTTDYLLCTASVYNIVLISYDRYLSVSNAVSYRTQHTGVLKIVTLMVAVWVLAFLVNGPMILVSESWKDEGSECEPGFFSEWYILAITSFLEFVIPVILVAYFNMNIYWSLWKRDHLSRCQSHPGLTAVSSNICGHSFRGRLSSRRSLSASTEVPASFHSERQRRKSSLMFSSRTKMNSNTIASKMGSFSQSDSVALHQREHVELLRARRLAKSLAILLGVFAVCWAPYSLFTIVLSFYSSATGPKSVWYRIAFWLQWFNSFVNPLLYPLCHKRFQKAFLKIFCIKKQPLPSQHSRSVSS

This experiment addresses Histamine H4 receptor (Homo sapiens, UniProt Q9H3N8). The conditions noted are these: Sf9.
Consider `N/C(=N\C(=O)CCCCCCCCC(=O)/N=C(\N)NCCCc1cnc(N)s1)NCCCc1cnc(N)s1`, for which the negative-log Kb (pKb) (in general, the negative decadic logarithm of the Kb, by convention in mol/L) is less than 6. Regarding `Cc1nc(N)sc1CCCN/C(N)=N/C(=O)CCCCCCCCC(=O)/N=C(\N)NCCCc1cnc(N)s1`, the pKb is less than 5. Then `Cc1nc(N)sc1CCCN/C(N)=N/C(=O)CCCCC(=O)/N=C(\N)NCCCc1sc(N)nc1C`, with less than 6; and `Cc1nc(N)sc1CCCN/C(N)=N/C(=O)CCCCCCCCC(=O)/N=C(\N)NCCCc1sc(N)nc1C`, with less than 6. Then `N/C(=N\C(=O)CCCCCCC(=O)/N=C(\N)NCCCc1cnc(N)s1)NCCCc1cnc(N)s1`, with less than 6; and `Cc1nc(N)sc1CCCN/C(N)=N/C(=O)CCCCCCC(=O)/N=C(\N)NCCCc1sc(N)nc1C`, with less than 6. Then `Cc1nc(N)sc1CCCN/C(N)=N/C(=O)CCCCCCCCCCCCCCC(=O)/N=C(\N)NCCCc1sc(N)nc1C`, with less than 6.
